Compound potency records, mixed from different reports. Data source: NIAID ChemDB in PubChem.

All rows: tests in culture; species: Mycobacterium tuberculosis

MIC bound: limit read from a one-dose screen. ECn is the concentration giving n% inhibition of infection, replication or growth. Neighbouring rows are from separate reports. MIC50, MIC90 and the like: level of inhibition, or share of isolates inhibited. Inhibition is in % at the dose shown (toxicity tests: loss of growth or viability). Blank or dashed fields: not listed here.

SMILES | mutations | dose | strain or isolate | read-out | read by | value
CSC(=Nc1ccc(Cl)cc1)Nn1c(C)nc2ccccc2c1=O | - | - | H37Rv | EC50 | resazurin | 12.5 µg/mL
CC(=O)Nc1c(-c2ccccc2)c2cc(Cl)ccc2n(C)c1=O | - | - | H37Rv | MIC | - | >6.25 µg/mL
COc1c(OCC=C(C)C)c2occc2c2oc(=O)ccc12 | - | - | H37Ra | EC50 | resazurin | 8.2 µg/mL
C=CCN=C(Nn1c(C)nc2ccccc2c1=O)SC | - | - | H37Rv | EC50 | resazurin | 25 µg/mL
CN[C@@H]1[C@H](O[C@H]2[C@H](O[C@H]3[C@H](O)[C@@H](O)[C@H](N=C(N)N)[C@@H](O)[C@@H]3N=C(N)N)O[C@@H](C)[C@]2(O)C=O)O[C@@H](CO)[C@H](O)[C@H]1O | - | - | MC8 | MIC | - | <2 µg/mL
O=C(NCc1ccc(N2CCN(Cc3ccccc3)CC2)nc1)c1ccc([N+](=O)[O-])o1 | - | - | HN878 | MIC | - | 0.05 µg/mL
CCCCCCCCCCCCN1CN(CCC(=O)O)CSC1=S | - | - | H37Rv | MIC | - | 12.5 µg/mL
Cn1cnc2c(NC(=O)c3ccc(F)cc3)nc(Cl)cc21 | - | - | H37Rv | MIC99 | visual reading | 6.25 µM
O=C1C(Cl)=C(NC2C(O)OC(CO)C(O)C2O)C(=O)C(Cl)=C1NC1C(O)OC(CO)C(O)C1O | - | 12.5 µg/mL | H37Rv | inhibition | BACTEC | 48%
COc1cc2ccc(=O)oc2c2ccoc12 | - | - | H37Ra | EC50 | resazurin | 86.6 µg/mL
CCOC(=O)N1CCN(c2ccc(C3CC(c4ccc([N+](=O)[O-])o4)=NO3)cc2)CC1 | - | - | UT29 | MIC | - | 0.012 µg/mL
Fc1ccc2nc(CCc3cc(Cl)cc(Cl)c3)[nH]c2c1 | - | - | Isolate 192 | MIC | broth dilution | >100 µg/mL
O=[N+]([O-])c1cn2c(n1)OC[C@@H](OCc1ccc(OC(F)(F)F)cc1)C2 | - | - | CDC1551 | MIC | - | 0.05 µg/mL
COC1=CC(=O)C(CCC(C)=O)=CC1=O | - | - | H37Rv | MIC | BACTEC | 128 µg/mL
CN(C)c1ccc(NC(=S)NNC(=O)c2ccccc2)cc1 | - | - | INH resistant | MIC | - | 4.96 µM
Cc1c(F)c(N2CCNC(C)C2)cc2c1c(=O)c(C(=O)O)cn2C1CC1 | - | - | - | MIC | - | 1 µg/mL
Nc1c(Br)cc2snc3c2c1C(=O)c1ccccc1-3 | - | - | H37Rv | MIC | BACTEC | 6.25 µg/mL
COc1c2c(c(OC)c3ccccc13)CN(c1ccccc1Br)C(=N)C2 | Lux | - | H37Rv | MIC | luminescence | 14.83 µM
CCC1NC(=O)C(NC(=O)c2ncccc2O)C(C)OC(=O)C(c2ccccc2)NC(=O)C2CC(=O)CCN2C(=O)C(Cc2ccccc2)N(C)C(=O)C2CCCN2C1=O | - | 12.5 µg/mL | H37Rv | inhibition | BACTEC | 11%
N=c1cc2c(cn1-c1ccccc1)C(=O)c1ccccc1C2=O | Lux | - | H37Rv | MIC | luminescence | 11.21 µM
O=C(O)C(Cc1ccccc1)N1CSC(=S)N(c2ccco2)C1 | - | - | H37Rv | MIC | - | 50 µg/mL
O=C(Nc1c(Cl)c(C2CC2)nn1-c1ccccc1)C(Cl)(Cl)Cl | - | 12.5 µg/mL | H37Rv | inhibition | BACTEC | 0%
CCOC(=O)c1c(-c2ccccc2)oc2cc(O)cc(CNC(C)C)c12 | - | - | mc(^2)7000 | MIC | resazurin / fluorescence | 9 µM
Cn1cnc2c(NS(=O)(=O)c3cccc(Br)c3)nc(Cl)cc21 | - | - | H37Rv | MIC99 | visual reading | 12.5 µM
N=c1cc2c(cn1-c1ccc([N+](=O)[O-])cc1)C(=O)c1ccccc1C2=O | Lux | - | H37Rv | MIC | luminescence | 2.79 µM
N#C/C(=C\c1ccco1)n1nc2ccccc2n1 | - | 12.5 µg/mL | H37Rv | inhibition | - | 9%
Cc1ccc(NC(=O)c2ccc(Cl)cc2)cc1Cl | - | 12.5 µg/mL | H37Rv | inhibition | BACTEC | 97%
CNC(=O)c1c(-c2ccccc2)oc2cc(OCCN)cc(CN3CCCCC3)c12 | - | - | mc(^2)7000 | MIC34 | resazurin / fluorescence | 40 µM
CCOC(=O)CCN1CSC(=S)N(C2CC2)C1 | - | - | H37Rv | MIC | - | 12.5 µg/mL
CCOc1cc(Cc2cnc(N)nc2N)cc(OCC)c1-n1cccc1 | - | - | 10 strains (isoniazid- rifampin-susceptible) | MIC | - | ≥256 µg/mL
N=C(N)/C=C/C(=O)O | - | 12.5 µg/mL | H37Rv | inhibition | BACTEC | 5%
COc1c2c(c(OC)c3ccccc13)CN(c1ccc(Br)cc1)C(=N)C2 | Lux | - | H37Rv | MIC | luminescence | 10.13 µM
C[C@@H]1CN(c2c(F)c(N)c3c(=O)c(C(=O)O)cn(C4CC4)c3c2F)C[C@H](C)N1 | - | - | - | MIC | - | 0.25 µg/mL
COc1c(OC)c2occc2c2oc(=O)ccc12 | - | - | H37Ra | MIC90 | resazurin | 200 µg/mL
COc1ccc2cc1Oc1ccc(cc1)CC1c3c(cc(OC)c4c3Oc3cc5c(cc3O4)CCNC5C2)CCN1C | - | 12.5 µg/mL | H37Rv | inhibition | BACTEC | 98%
CO[C@H]1/C=C/O[C@@]2(C)Oc3c(C)c(O)c4c(O)c(c(/C=N/N5CCN(C)CC5)c(O)c4c3C2=O)NC(=O)/C(C)=C\C=C\[C@H](C)[C@H](O)[C@@H](C)[C@@H](O)[C@@H](C)[C@H](OC(C)=O)[C@@H]1C | - | - | 98596 | MIC | - | ≥2 µg/mL
CCCCN1CN(CCC(=O)O)CSC1=S | - | - | H37Rv | MIC | - | 25 µg/mL
CC1COc2c(N3CCN(C)CC3)c(F)cc3c(=O)c(C(=O)O)cn1c23 | - | - | 10 strains | MIC | - | ≤1 µg/mL
CCCN(C)C(=O)c1c(-c2ccccc2)oc2ccc(O)c(CCCN3CCC3)c12 | - | - | mc(^2)7000 | MIC | resazurin / fluorescence | 0.33 µM
Cc1cc(O)c2c(c1O)C(=O)c1c(O)ccc(O)c1C2=O | - | - | H37Rv | MIC bound | BACTEC | >12.5 µg/mL
CCOC(=O)c1cccc(N2Cc3c(c(OC)c4ccccc4c3OC)CC2=N)c1 | Lux | - | H37Rv | MIC | luminescence | 23.41 µM
Cn1c(=O)c2nsnc2n(C)c1=O | - | - | H37Rv | MIC bound | BACTEC | >12.5 µg/mL
CNC(=O)c1c(-c2ccc(NC(C)=O)cc2)oc2cc(O)cc(CN3CCCCC3)c12 | - | - | mc(^2)7000 | MIC | resazurin / fluorescence | >20 µM
CC(=O)Nc1c(C)c2ccccc2[nH]c1=O | - | - | H37Rv | EC50 | - | >6.25 µg/mL
COc1c2ccoc2cc2oc(=O)ccc12 | - | - | H37Ra | MIC90 | resazurin | 200 µg/mL
O=C(O)CCCN1CSC(=S)N(Cc2ccccc2)C1 | - | - | H37Rv | MIC | - | 12.5 µg/mL
N#CNC(N)=NC1=CC(=O)C(=O)c2ccccc21 | - | 6.25 µg/mL | H37Rv | inhibition | resazurin | 42%
COc1cc(/C=C(\C#N)n2nnc3ccccc32)cc(OC)c1OC | - | 12.5 µg/mL | H37Rv | inhibition | - | 43%
Cc1ccc(NC(=S)NNC(=O)c2ccncc2)cc1 | - | - | WT | MIC | - | 5.44 µM
CCCCCCCCN1CN(CCC(=O)O)CSC1=S | - | - | H37Rv | MIC | - | 25 µg/mL
CNC1[C@H]2CN(c3nc4c(cc3F)c(=O)c(C(=O)O)cn4-c3ccc(F)cc3F)C[C@@H]12 | - | - | - | MIC | - | 16 µg/mL
Cn1cnc2c(NS(=O)(=O)c3ccc(C#N)cc3)nc(Cl)cc21 | - | - | H37Rv | MIC99 | visual reading | >25 µM
O=C(O)CCCN1CSC(=S)N(c2ccco2)C1 | - | - | H37Rv | MIC | - | 50 µg/mL
OCc1c(-c2ccccc2)oc2ccc(O)c(CN3CCC(N4CCCCC4)CC3)c12 | - | - | mc(^2)7000 | MIC28 | resazurin / fluorescence | 20 µM
Fc1ccc(NC(=S)N/N=C/c2cccnc2)cc1Cl | - | - | H37Rv | MIC | - | 1 µg/mL
O=NNc1ccc([N+](=O)[O-])cn1 | - | - | H37Rv | MIC | BACTEC | ≥12.5 µg/mL
N#C/C(=C/c1ccc2ccccc2c1)n1nnc2ccccc21 | - | - | H37Rv | EC50 | - | >12.5 µg/mL
CNC(=O)c1c(-c2ccc(F)cc2)oc2cc(O)cc(CCN[C@@H](Cc3cnc[nH]3)C(=O)O)c12 | - | - | mc(^2)7000 | MIC | resazurin / fluorescence | 5 µM
CC(=O)N(C)SCC(NC(=O)[C@@H](Cc1ccccc1)NC(=O)OCc1ccccc1)C(=O)NC(Cc1ccccc1)C(=O)N[C@H](Cc1cn(C=O)c2ccccc12)C(=O)NC(CCCCNC(=O)OCc1ccccc1)C(=O)NC(C(=O)NC(CSN(C)C(C)=O)/C(O)=N/O)C(C)OCc1ccccc1 | - | 6.25 µg/mL | - | inhibition | BACTEC | 0%
Cn1c(=O)c(N)c(-c2ccccc2)c2cc(Cl)ccc21 | - | 6.25 µg/mL | H37Rv | inhibition | - | 5%
CSC(=Nc1cccc(Cl)c1)Nn1c(C)nc2ccccc2c1=O | - | - | H37Rv | EC50 | resazurin | 6.25 µg/mL
CC(C)(C)CC(C)(O)CN(CC(C)(O)CC(C)(C)C)C(=S)S | - | - | H37Rv | MIC bound | BACTEC | ≤12.5 µg/mL
O=C(NNC(=S)Nc1ccc(F)cc1)c1ccncc1 | - | - | WT | MIC | - | 1.34 µM
CCOc1ccc2nc(NC(=O)C3C4CCC(O4)C3C(=O)O)sc2c1 | - | 12.5 µg/mL | H37Rv | inhibition | BACTEC | 21%
NC(=O)/C(=C\c1ccc(Br)cc1)n1nnc2ccccc21 | - | 12.5 µg/mL | H37Rv | inhibition | - | 0%
O=C(NNc1ccccc1)C(O)C(=O)C(O)C(O)C(O)CO | - | - | H37Rv | MIC | BACTEC | ≥12.5 µg/mL
Fc1ccc(NC(=S)N/N=C/c2cccs2)cc1Cl | - | - | H37Rv | MIC | - | 2.5 µg/mL
N#C/C(=C\c1ccc[nH]1)n1nnc2ccccc21 | - | 12.5 µg/mL | H37Rv | inhibition | - | 14%
c1ccc(CCc2nc3cc4ccccc4cc3[nH]2)cc1 | - | - | Isolate 192 | MIC | broth dilution | >100 µg/mL
O=c1[nH]c2ccc(Cl)cc2c(-c2ccccc2)c1-[n+]1ccccc1 | - | - | H37Rv | MIC | - | >6.25 µg/mL
CCOC(=O)c1c(-c2ccccc2)oc2ccc(O)c(CN3CCC(N4CCCCC4)CC3)c12 | - | - | mc(^2)7000 | MIC40 | resazurin / fluorescence | 20 µM
Cn1cnc2c(NS(=O)(=O)Cc3ccccc3)nc(Cl)cc21 | - | - | H37Rv | MIC99 | visual reading | >25 µM
CO[C@H]1/C=C/O[C@@]2(C)Oc3c(C)c(O)c4c(O)c(c(/C=N/N5CCN(C)CC5)c(O)c4c3C2=O)NC(=O)/C(C)=C\C=C\[C@H](C)[C@H](O)[C@@H](C)[C@@H](O)[C@@H](C)[C@H](OC(C)=O)[C@@H]1C | - | - | Isolate 192 | MIC | broth dilution | 2.5 µg/mL
CCc1ccccc1N=C(Nn1c(C)nc2ccccc2c1=O)SC | - | - | H37Rv | EC50 | resazurin | 25 µg/mL
CO[C@H]1/C=C/O[C@@]2(C)Oc3c(C)c(O)c4c(O)c(c(/C=N/N5CCN(C6CCCC6)CC5)c(O)c4c3C2=O)NC(=O)/C(C)=C\C=C\[C@H](C)[C@H](O)[C@@H](C)[C@@H](O)[C@@H](C)[C@H](OC(C)=O)[C@@H]1C | - | - | 1022 | MIC | - | 0.08 µg/mL
Cc1c(C(=O)C/C(=N\NC(=O)CC#N)C(N)=O)[n+](=O)c2ccccc2n1[O-] | - | - | H37Rv | MIC bound | BACTEC | >12.5 µg/mL
COc1c(N2C[C@@H]3C(N)[C@@H]3C2)c(F)cc2c(=O)c(C(=O)O)cn(C3CC3)c12 | - | - | - | MIC | - | 64 µg/mL
N#Cc1ncc(C(Cl)(Cl)Cl)nc1Cl | - | - | H37Rv | MIC | - | 6.3 µg/mL
Cn1cnc2c(NC(=O)c3ccccc3C(F)(F)F)nc(Cl)cc21 | - | - | H37Rv | MIC99 | visual reading | 0.25 µM
O=C1C=CC(=C(c2ccc(O)cc2)c2c(Br)c(Br)c(Br)c(Br)c2S(=O)(=O)O)C=C1 | - | 12.5 µg/mL | H37Rv | inhibition | BACTEC | 0%
CSC(=Nc1ccc([N+](=O)[O-])cc1)Nn1c(C)nc2ccccc2c1=O | - | - | H37Rv | EC50 | resazurin | 6.25 µg/mL
CO[C@@H]1[C@@H]([C@@]2(C)O[C@@H]2CC=C(C)C)[C@@]2(CC[C@@H]1O)CO2 | - | - | H37Rv | MIC | BACTEC | ≥128 µg/mL
COc1c2c(c(OC)c3ccccc13)CN(c1ccc(C)cc1)C(=N)C2 | Lux | - | H37Rv | MIC | luminescence | 21.49 µM